Measured values from several laboratories, pooled; numbers as filed in NIAID ChemDB.

Common to all: tests in culture; organism: HIV-1; endpoint: EC50

Neighbouring rows are from separate reports. ECn: concentration that inhibits the pathogen or its effect by n%. An empty or dashed field is not shown.

smiles | conditions | read by | cells | strain | mutations | value
O=[N+]([O-])c1cccc(Cn2c(Br)nc3cc(Cl)c(Cl)cc32)c1 | - | plaque count / syncytia | CEM + CEM-SS | IIIB | - | 5.3 µM
Cc1cc(C)cc(S(=O)(=O)c2c(C(=O)N[C@H](C)C(=O)NCc3ccncn3)[nH]c3ccc(Cl)cc23)c1 | - | cytopathic effect / MTT / absorbance | MT-4 | NL4-3 | K103N/Y181C | >25.5 µM
CC(C)OC(=O)OCOP(=O)(CO[C@H](C)Cn1cnc2c(N)ncnc21)OCOC(=O)OC(C)C | 7 d, clinical isolate | XTT / p24 | PBMC | 96250 | - | 0.0004 µM
COc1nc(N)nc2c1ncn2[C@H]1C=C[C@@H](CO)C1 | - | cytopathic effect / propidium iodide | MT-4 | IIIB | - | 3 µM
c1cc(CN2CCCNCCNCCCNCC2)ccc1CN1CCCNCCNCCCNCC1 | - | MTT | MT-4 | BCF06 (subtype O) | - | 0.004 µg/mL
O=c1[nH]n(-c2nc3ccccc3c(=O)n2-c2ccc(Cl)cc2)c(=O)c2ccccc12 | - | visual reading | MT-4 | IIIB | - | 43.68 µM
Cc1cn([C@H]2C=C[C@@H](CO)O2)c(=O)[nH]c1=O | - | p24 / ELISA | Primary T lymphocytes | - | K65R | 1.5 µM
Cc1cc(C)cc(S(=O)(=O)c2c(C(=O)NCC(=O)NC(C)c3ccncc3)[nH]c3ccc(Cl)cc23)c1 | - | cytopathic effect / MTT / absorbance | MT-4 | NL4-3 | K103N | 0.305 µM
Cc1occc1C(=S)Nc1ccc(Cl)c(/C=N/OC(C)(C)C)c1 | - | cytopathic effect / XTT | CEM + CEM-SS | E BPTU-resistant (RT Y181C) | RT-Y181C | 0.06 µM
Nc1ncnc2c1ncn2[C@@H]1O[C@H](OCP(=O)(O)O)C=C1F | - | p24 / ELISA / antigen | Macrophages | - | - | 2.5 µM
Cc1cn([C@H]2C[C@H](N=[N+]=[N-])[C@@H](CO)O2)c(=O)[nH]c1=O | - | plaque count / syncytia | CEM + CEM-SS | C-691/H-112 | - | 0.002 µM
Cc1cn([C@H]2C[C@H](N=[N+]=[N-])[C@@H](CO)O2)c(=O)[nH]c1=O | - | ATP | MT-2 | IIIB | - | 0.14 µM
O=c1[nH]n(-c2nc3ccccc3c(=O)n2-c2ccccc2)c(=O)c2ccccc12 | - | visual reading | MT-4 | IIIB | - | 100 µM
Nc1nc(N)c2ncn([C@H]3C=C[C@@H](CO)C3)c2n1 | - | cytopathic effect / propidium iodide | MT-4 | IIIB | - | 10 µM
Fc1cccc(Cl)c1C1OCc2nc3ccccc3n21 | - | cytopathic effect / MTT | CEM | TSAO-resistant (RT E138K) | RT-E138K | ≥14.69 µM
CCn1nc(Cc2ccc(OCc3ccccc3)cc2)cc1C1CCN(C[C@H]2CN([C@@H](C(=O)O)C(C)(C)C)C[C@@H]2c2cccc(F)c2)CC1 | - | β-galactosidase | HeLa | BaL | - | <0.0037 µM
CO[C@H]1O[C@@H](n2ccc(=O)[nH]c2=O)C[C@@H]1N=[N+]=[N-] | - | ELISA / antigen | MT-4 | IIIB | - | 0.36 µM
CC(=O)N1CCC(C(=O)N(CCCN2CCC(Cc3ccc(C(N)=O)cc3)CC2)c2ccc(C)c(Cl)c2)CC1 | - | luciferase | U87 (CD4+ CCR5+) + U87 | R5 subtype B_9 recombinant | - | 0.013 µM
C=CCSc1nc(N)nc2c1ncn2[C@H]1C=C[C@@H](CO)C1 | - | cytopathic effect / propidium iodide | MT-4 | IIIB | - | 7.3 µM
c1cc(CN2CCCNCCNCCCNCC2)ccc1CN1CCCNCCNCCCNCC1 | - | luminescence | TZM-bl | NL4-3 | - | 0.00095 µM
C/C=C/C1=C(/C=C/C(C)O)COC1=O | - | p24 / ELISA / antigen | C8166 | LAI | - | 24.32 µg/mL
Cc1ccnc2c1NC(=O)c1cccnc1N2C1CC1 | - | fluorescence | CEM | LAI | - | 0.105 µM
c1ccc(C2OCc3nc4ccccc4n32)cc1 | - | cytopathic effect / MTT | CEM | TIBO R82150-resistant (RT K103N) | RT-K103N | >3.38 µM
O=c1[nH]cnc2c1ncn2C1CC[C@@H](CO)O1 | - | p24 / ELISA | Primary T lymphocytes | - | K65R | 21.2 µM
C[C@H](Cn1cnc2c(N)ncnc21)OCP(=O)(O)O | - | p24 / ELISA / antigen | Macrophages | - | - | 0.41 µM
CCOCc1cn([C@@H]2C[C@H](N=[N+]=[N-])[C@@H](CO)O2)c(=O)[nH]c1=O | - | ELISA / antigen | MT-4 | IIIB | - | >100 µM
Cc1cn([C@H]2C[C@H](N=[N+]=[N-])[C@@H](CO)O2)c(=O)[nH]c1=O | - | MTT | MT-4 | 39RW024 (subtype A) | - | 0.001 µg/mL
Cc1ccc(Cn2c(Cl)nc3cc(Cl)c(Cl)cc32)cc1 | - | plaque count / syncytia | CEM + CEM-SS | IIIB | - | 33 µM
Cc1cc(C)cc([C@]23SCCN2C(=O)c2ccccc23)c1 | - | p24 / ELISA | PBMC | IIIB | - | 0.016 µM
CCCC1C(=O)OCC1CCC(C)=O | - | p24 / ELISA / antigen | C8166 | LAI | - | 36.74 µg/mL
Nc1nc2cc(Cl)c(Cl)cc2n1Cc1ccc(C(F)(F)F)cc1 | - | plaque count / syncytia | CEM + CEM-SS | IIIB | - | 1.8 µM
CCOC(=O)[C@H](C)N[P@](=O)(CO[C@@H]1C=C(F)[C@H](n2cnc3c(N)ncnc32)O1)Oc1ccccc1 | 4 d | p24 / ELISA / antigen | PBMCs | UG-92-024 (subtype D) | - | 0.023 µM
C/C=C/CSc1cc(NC(=S)c2ccsc2C)ccc1Cl | - | cytopathic effect / XTT | CEM + CEM-SS | TIBO R82150-resistant (RT A98G V108I) | RT-A98G V108I | 1.2 µM
COc1ccc(-n2c(-n3[nH]c(=O)c4ccccc4c3=O)nc3ccccc3c2=O)cc1 | - | visual reading | MT-4 | IIIB | - | 100 µM
Cc1ccnc2c1NC(=O)c1cccnc1N2C1CC1 | - | cytopathic effect / XTT | MT-2 | IIIB | - | 0.1 µM
CCn1c(-n2[nH]c(=O)c3ccccc3c2=O)nc2ccccc2c1=O | - | visual reading | MT-4 | IIIB | - | 100 µM
COc1cc([C@H](Cc2ccccc2)n2cc(C(N)=O)c(=O)cc2Cc2ccccc2)oc(=O)c1 | - | XTT / absorbance | TZM-bl | SF162 | - | >50 µM
CCCCOc1nc(N)nc2c1ncn2[C@H]1C=C[C@@H](CO)C1 | - | cytopathic effect / propidium iodide | MT-4 | IIIB | - | 6.6 µM
[N-]=[N+]=N[C@H]1C[C@@H](n2cc(CO)c(=O)[nH]c2=O)O[C@@H]1CO | - | ELISA / antigen | MT-4 | IIIB | - | >100 µM
COC(=O)[C@@H](C)CC(=O)NC(=O)c1cn([C@@H](Cc2ccccc2)c2cc(OC)cc(=O)o2)c(Cc2ccccc2)cc1=O | - | XTT / absorbance | TZM-bl | SF162 | - | >50 µM
N#CC[C@H](C1CCCC1)n1cc(-c2ncnc3[nH]ccc23)cn1 | - | p24 / ELISA | Primary T lymphocytes | - | M184V | 0.3 µM
CC[C@H](C)[C@H](NC(=O)c1ccccc1SSc1ccccc1C(=O)N[C@H](C(=O)O)[C@@H](C)CC)C(=O)O | - | p24 / RT activity | MT-4 | - | PR-L10R M46I L63P V82T I84V | 1.6 µM
CC[C@H](C)[C@H](C(=O)O)N1C[C@H](CN2CCC(c3cc(Cc4ccc(OC)c(C#N)c4)nn3CC)CC2)[C@@H](c2cccc(F)c2)C1 | 50% human serum | β-galactosidase | HeLa | BaL | - | <0.033 µM
Nc1nc2c(ncn2[C@H]2C=C[C@@H](CO)C2)c(=O)[nH]1 | - | cytopathic effect / propidium iodide | MT-4 | IIIB | - | 4.6 µM
CCCCOc1ccc(Cc2cc(C3CCN(C[C@H]4CN([C@@H](C(=O)O)C(C)C)C[C@@H]4c4cccc(F)c4)CC3)n(CC)n2)cc1 | - | β-galactosidase | HeLa | BaL | - | <0.011 µM
CN(c1nc(N)nc2c1ncn2[C@H]1C=C[C@@H](CO)C1)C1CC1 | - | cytopathic effect / propidium iodide | MT-4 | IIIB | - | 9 µM
CC(C)OC(=O)OCOP(=O)(CO[C@H](C)Cn1cnc2c(N)ncnc21)OCOC(=O)OC(C)C | - | β-galactosidase / absorbance | MAGIC-5A | NL4-3 | - | 0.013 µM
CCCOc1ccc(Cc2cc(C3CCN(C[C@H]4CN([C@@H](C(=O)O)C(C)(C)C)C[C@@H]4c4cccc(F)c4)CC3)n(CC)n2)cc1 | 50% human serum | β-galactosidase | HeLa | BaL | - | <0.3 µM
C#C[C@]1(CO)O[C@@H](n2cnc3c(N)nc(F)nc32)CC1O | - | β-galactosidase / absorbance | MAGIC-5A | NL4-3 | M184V | 0.018 µM
Cc1nnc(C(C)C)n1C1C[C@H]2CC[C@@H](C1)N2CC[C@H](NC(=O)C1CCC(F)(F)CC1)c1ccccc1 | - | luminescence | TZM-bl | NL4-3 | - | >1000 µM
O=[N+]([O-])c1ccc(Cn2c(Cl)nc3cc(Cl)c(Cl)cc32)cc1 | - | plaque count / syncytia | CEM + CEM-SS | IIIB | - | 7.8 µM
CCc1c(C(=O)c2cc(C)cc(C)c2)n(CC2CC=CC2)c(=O)[nH]c1=O | - | cytopathic effect / XTT | CEM + CEM-SS | NL4-3 | RT-A98G | 0.0006 µM
CCCCCCOCc1cn([C@@H]2C[C@H](N=[N+]=[N-])[C@@H](CO)O2)c(=O)[nH]c1=O | - | ELISA / antigen | MT-4 | IIIB | - | 33 µM
Cc1cc(N)c(C)c2c1[nH]c1c(Cl)cccc12 | - | luminescence | TZM-bl | NL4-3 | - | 10.2 µM
Nc1nc(=O)n([C@@H]2CS[C@H](CO)O2)cc1F | - | ATP | MT-2 | IIIB | - | 0.39 µM
O=C1c2ccccc2C2(c3ccccc3)SCCN12 | - | p24 / ELISA | PBMC | D79 | - | 0.058 µM

Again, the opening 8 rows:

{"smiles": "O=[N+]([O-])c1cccc(Cn2c(Br)nc3cc(Cl)c(Cl)cc32)c1", "read by": "plaque count / syncytia", "cells": "CEM + CEM-SS", "strain": "IIIB", "value": "5.3 µM"}
{"smiles": "Cc1cc(C)cc(S(=O)(=O)c2c(C(=O)N[C@H](C)C(=O)NCc3ccncn3)[nH]c3ccc(Cl)cc23)c1", "read by": "cytopathic effect / MTT / absorbance", "cells": "MT-4", "strain": "NL4-3", "mutations": "K103N/Y181C", "value": ">25.5 µM"}
{"smiles": "CC(C)OC(=O)OCOP(=O)(CO[C@H](C)Cn1cnc2c(N)ncnc21)OCOC(=O)OC(C)C", "conditions": "7 d, clinical isolate", "read by": "XTT / p24", "cells": "PBMC", "strain": "96250", "value": "0.0004 µM"}
{"smiles": "COc1nc(N)nc2c1ncn2[C@H]1C=C[C@@H](CO)C1", "read by": "cytopathic effect / propidium iodide", "cells": "MT-4", "strain": "IIIB", "value": "3 µM"}
{"smiles": "c1cc(CN2CCCNCCNCCCNCC2)ccc1CN1CCCNCCNCCCNCC1", "read by": "MTT", "cells": "MT-4", "strain": "BCF06 (subtype O)", "value": "0.004 µg/mL"}
{"smiles": "O=c1[nH]n(-c2nc3ccccc3c(=O)n2-c2ccc(Cl)cc2)c(=O)c2ccccc12", "read by": "visual reading", "cells": "MT-4", "strain": "IIIB", "value": "43.68 µM"}
{"smiles": "Cc1cn([C@H]2C=C[C@@H](CO)O2)c(=O)[nH]c1=O", "read by": "p24 / ELISA", "cells": "Primary T lymphocytes", "mutations": "K65R", "value": "1.5 µM"}
{"smiles": "Cc1cc(C)cc(S(=O)(=O)c2c(C(=O)NCC(=O)NC(C)c3ccncc3)[nH]c3ccc(Cl)cc23)c1", "read by": "cytopathic effect / MTT / absorbance", "cells": "MT-4", "strain": "NL4-3", "mutations": "K103N", "value": "0.305 µM"}